Measured values from several laboratories, pooled; numbers as filed in NIAID ChemDB.

Common to all: tests in culture; organism: Influenza B virus; cell line: MDCK; method: cytopathic effect; read-out: EC50

ECn is the concentration giving n% inhibition of infection, replication or growth. Blank or dashed fields: not listed here. Lines come from different laboratories, so protocols vary.

| smiles | strain | result |
|---|---|---|
| CC1(CO)CCC(Cn2cnc3c(=O)[nH]c(N)nc32)C1(C)C | HONG KONG/5/72 | >50 µg/mL |
| CCN(C(=O)N1C[C@H](N)[C@](O)(C(=O)O)C1)C(C)C | B/HONG KONG/5/72 | 305 µM |
| CCOc1ncn(-c2ccc(NC(=S)Nc3ncccn3)cc2)n1 | Singapore | >8 µg/mL |
| C=C(N=CC)c1nc(-c2ccccc2)n([C@@H]2O[C@H](CO)[C@@H](O)[C@H]2O)n1 | Singapore | >200 µg/mL |
| C=C[C@H](O)C1=C[C@@H](n2cnc3c(N)ncnc32)[C@H](O)[C@@H]1O | HONG KONG | >250 µg/mL |
| CC=NC(=N)c1nc(-c2ccccc2)n(C/C=C/c2ccccc2)n1 | Singapore | >20 µg/mL |
| CCOc1ncn(-c2ccc(NC(=S)NC34CC5CC(CC(C5)C3)C4)cc2)n1 | Singapore | >200 µg/mL |
| CC(C)CS[C@@H]1C[C@H](n2cnc3c(N)ncnc32)[C@@H](O)[C@H]1O |  | 37 µg/mL |
| C=C(N=CC)c1nc(-c2cccc(C)c2)n([C@@H]2O[C@H](CO)[C@@H](O)[C@H]2O)n1 | Singapore | >100 µg/mL |
| C#C[C@H](O)C1=C[C@@H](n2cnc3c(N)ncnc32)[C@H](O)[C@@H]1O | HONG KONG | >50 µg/mL |
| CC(O)CCCCCC(CCCCCCCCCCCCCC1CC(=O)OC[C@H]2O[C@@H](OC(CCCCCCCCCCCC(CCCCCC(C)O)O[C@@H]3O[C@H](CO)[C@@H](O)[C@H](O)[C@H]3O)CC(=O)OC[C@@H]3O[C@H](O1)[C@@H](O)[C@H](O)[C@H]3O)[C@H](O)[C@@H](O)[C@@H]2O)O[C@@H]1O[C@H](CO)[C@@H](O)[C@H](O)[C@H]1O | B/LEE/40 | 3.3 µg/mL |
| CC1(CO)CCC(Cn2ccc(=O)[nH]c2=O)C1(C)C | HONG KONG/5/72 | >250 µg/mL |
| CCCOc1ncn(-c2ccc(NC(=S)Nc3ncccn3)cc2)n1 | Singapore | >100 µg/mL |
| CCON=C[C@H]1O[C@@H](n2cnc3c(N)ncnc32)[C@H](O)[C@@H]1O | Singapore | 1.2 µg/mL |
| COc1ccccc1CNC(=O)C1=Cc2ccncc2CC1 |  | 158 µM |
| CCCOc1ncn(-c2ccc(NC(=S)NC34CC5CC(CC(C5)C3)C4)cc2)n1 | Singapore | >100 µg/mL |
| Nc1ncnc2c1ncn2[C@@H]1O[C@H](C=NO)[C@@H](O)[C@H]1O | Singapore | ≥0.8 µg/mL |
| CCOc1ncn(-c2ccc(NC(=S)NC3O[C@H](CO)[C@@H](O)[C@H](O)[C@H]3O)cc2)n1 | Singapore | >200 µg/mL |
| Nc1ccn([C@@H]2C[C@H](CO)[C@@H](O)[C@H]2O)c(=O)n1 |  | 4.5 µg/mL |
| CC=NC(=N)c1nc(-c2cccc(OC)c2)n(COCCO)n1 | Singapore | >200 µg/mL |
| CC1(CO)CCC(Cn2nnc3c(N)nc(N)nc32)C1(C)C | HONG KONG/5/72 | >50 µg/mL |
| CC[C@H](O)C1=C[C@@H](n2cnc3c(N)ncnc32)[C@H](O)[C@@H]1O | HONG KONG | >250 µg/mL |
| CC1(CO)CCC(Cn2nnc3c(N)ncnc32)C1(C)C | HONG KONG/5/72 | >50 µg/mL |
| CC1(CO)CCC(Cn2cnc3c(Cl)nc(N)nc32)C1(C)C | HONG KONG/5/72 | >50 µg/mL |